In patent publication US11597726B2 (Certego Therapeutics Inc., priority 2020, dated 2023):

System: c-fos
Test: Pharmacomapping: whole-brain drug-evoked c-fos activation
[1] = gaboxadol at 30 mg/kg and higher, d2-gaboxadol at 10 mg/kg and higher
[2] = gaboxadol at 10 and 20 mg/kg, d2-gaboxadol at 6 mg/kg

Row | SMILES | activation of dorsal and ventral anterior cingulate cortex (ACAd and ACAv) [1] | activation of dorsal and ventral anterior cingulate cortex (ACAd and ACAv) [2]
1 | Oc1noc2c1CCNC2 [gaboxadol, 4,5,6,7-tetrahydroisoxazolo (5,4-c) pyridin-3-ol] | strongly diminished | strong activation
2 | [2H]C1([2H])NCCc2c1o[nH]c2=O [d2-gaboxadol 7,7, 4,5,6,7-tetrahydroisoxazolo[5,4-c]pyridin-3(2H)-one-7,7-d2] | strongly diminished | strong activation
